Measurements reported in publication PMC12477077, “Polyclonal antibodies towards abrin and ricin—design and potential application for mass spectrometry-based analysis of human biosamples” (2025).

Assays:
[1] = Processed sample stability (extracts in autosampler); details: extracts (aqueous glycine buffer eluate) of 5 ng/mL spiked plasma, silanized vials in autosampler, 24 h at 20 °C; LC-Orbitrap MS; mean (CV), n = 3
[2] = Stability of peptides in spiked plasma (short-term, benchtop, freeze/thaw, long-term); details: for Benchtop stability (24 h, 22 °C), peak area deviation t0 compared to t1 (CV, %): 24 h at 22 °C; for Freeze/thaw stability (24 h, −20 °C), peak area deviation t0 compared to t1 (CV, %): one freeze and thaw cycle, 24 h at −20 °C
[3] = human pooled blank EDTA plasma spiked 5 ng/mL, protein LoBind tubes, LC-Orbitrap MS, mean (CV), n = 3
[4] = plasma spiked 5 ng/mL, proteases inhibitor coated tubes (BD P100, K2EDTA), LC-Orbitrap MS, mean (CV), n = 3, italic values

SMILES: CC[C@H](C)[C@H](NC(=O)[C@H](CCCCN)NC(=O)[C@H](CO)NC(=O)[C@H](CCCCN)NC(=O)[C@H](CCC(=O)O)NC(=O)[C@@H](NC(=O)[C@@H](NC(=O)[C@H](CO)NC(=O)[C@H](CCCNC(=N)N)NC(=O)[C@@H](NC(=O)[C@H](CC(C)C)NC(=O)[C@H](CC(C)C)NC(=O)[C@@H]1CCCN1C(=O)[C@H](CO)NC(=O)[C@H](CCC(N)=O)NC(=O)[C@H](CC(N)=O)NC(=O)[C@H](C)NC(=O)[C@H](CC(N)=O)NC(=O)[C@@H]1CCCN1C(=O)[C@@H]1CCCN1C(=O)[C@H](CC(N)=O)NC(=O)[C@@H](N)CS)[C@@H](C)CC)[C@@H](C)CC)C(C)C)C(=O)O
- Processed sample stability (24 h, 20 °C), peak area deviation t0 compared to t1 (CV, %) [1]: 101 (4.4) %
- Short-term stability (7 h, 4 °C), peak area deviation t0 compared to t1 (CV, %) ([2]; blank plasma spiked 5 ng/mL, protein LoBind tubes, 7 h at 4 °C, LC-Orbitrap MS, mean (CV), n = 3): 66 (15) %
- Benchtop stability (7 h, 22 °C), peak area deviation t0 compared to t1 (CV, %) ([2]; blank plasma spiked 5 ng/mL, protein LoBind tubes, 7 h at 22 °C, LC-Orbitrap MS, mean (CV), n = 3): 43 (33) %
- Freeze/thaw stability (7 h, -20 °C), peak area deviation t0 compared to t1 (CV, %) ([2]; blank plasma spiked 5 ng/mL, protein LoBind tubes, 7 h at -20 °C, LC-Orbitrap MS, mean (CV), n = 3): 104 (5.9) %
- Long-term stability (three weeks, -20 °C), peak area deviation t0 compared to t1 (CV, %) ([2]; blank plasma spiked 5 ng/mL, protein LoBind tubes, three weeks at -20 °C, LC-Orbitrap MS, mean (CV), n = 3): 69 (12) %
- Benchtop stability (24 h, 22 °C), peak area deviation t0 compared to t1 (CV, %) [2, 3]: 27 (7.3) %
- Freeze/thaw stability (24 h, −20 °C), peak area deviation t0 compared to t1 (CV, %) [2, 3]: 82 (4.1) %
- Short-term stability (24 h, 4 °C), peak area deviation t0 compared to t1 (CV, %) ([2]; plasma spiked 5 ng/mL, proteases inhibitor coated tubes (BD P100, K2EDTA), 24 h at 4 °C, LC-Orbitrap MS, mean (CV), n = 3, italic values): 52 (12) %
- Benchtop stability (24 h, 22 °C), peak area deviation t0 compared to t1 (CV, %) [2, 4]: 20 (23) %
- Freeze/thaw stability (24 h, −20 °C), peak area deviation t0 compared to t1 (CV, %) [2, 4]: 105 (19) %
- Time plasma containing the peptide can be stored at −20 °C ([2]; plasma, proteases inhibitor coated tubes (BD P100), −20 °C, 5 ng/mL): at least 24 h
